Results deposited as PubChem BioAssay AID1259414 (Drosophila RNAi Screening Center, 2018).

Assay: 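Fly genes that alter Wolbachia amount inside host cells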 (primary screen)
Cell system: Drosophila JW18 cells infected with Wolbachia
Reagents: long dsRNA against Drosophila genes, 0.25 µg dsRNA per well of a 384-well plate
Time to read-out: 5 days
Treatment: cells persistently infected with Wolbachia before knock-down; no added drug
Measured: 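Automated imaging of bacterial rRNA staining divided by host cell count, reported as plate-normalised robust z-score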
Reading the numbers: Wolbachia per cell robust z: higher = more Wolbachia per host cell than the plate typical
Call rule: 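Active if absolute robust z reaches 1.5 in two or more of three replicates, leaving out multi- or no-target dsRNAs, genes unexpressed in JW18 and A1 wells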
The deposit covers about 24,000 reagents; this is an unselected part of those with a known target gene and a result. Of all reagents, about 1,210 (5%) got an active call. 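Inactive calls also include excluded dsRNAs with several or no targets, genes unexpressed in JW18, and well A1, regardless of score.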 A plus sign joins genes that one reagent is predicted to hit. No sequences are given here.

The opening 3 entries, ahead of the listing:
gene knocked down | amplicon | Wolbachia per cell robust z, rep 1 | Wolbachia per cell robust z, rep 2 | Wolbachia per cell robust z, rep 3 | Outcome
CG17344 | DRSC02607 | 1.49 | -1.3 | 1.11 | inactive
CG14696 | DRSC14919 | 0.423 | -1.95 | 1.46 | inactive
form3 | DRSC10195 | -1.93 | -4.92 | -0.446 | active

The list itself, repeating the preview:
gene knocked down | amplicon | Wolbachia per cell robust z, rep 1 | Wolbachia per cell robust z, rep 2 | Wolbachia per cell robust z, rep 3 | Outcome
CG17344 | DRSC02607 | 1.49 | -1.3 | 1.11 | inactive
CG14696 | DRSC14919 | 0.423 | -1.95 | 1.46 | inactive
form3 | DRSC10195 | -1.93 | -4.92 | -0.446 | active
form3 | DRSC10297 | 0.281 | 0.522 | -0.175 | inactive
form3 | DRSC11024 | 0.11 | 0.941 | 0.441 | inactive
bru2 | DRSC01246 | -0.095 | 0.246 | -0.495 | inactive
bru2 | DRSC01247 | -1.29 | -2.29 | -4.55 | inactive
bru2 | DRSC01249 | 0.0122 | 0.262 | 0.076 | inactive
bru2 | DRSC25003 | -0.16 | -0.016 | -0.398 | inactive
CG33458 | DRSC22891 | -0.934 | -4.06 | 0.0991 | inactive
CG1571 | DRSC18068 | 0.752 | 0.775 | -1.57 | inactive
CG8952 | DRSC20133 | -2.43 | -6.66 | 0.656 | active
yellow-c + CIAPIN1 | DRSC01898 | 0.588 | 0.934 | -0.386 | inactive
CG44325 | DRSC18039 | -0.514 | -4.75 | -0.943 | inactive
CG44325 | DRSC18423 | -1.85 | -1.01 | -0.343 | inactive
GCS2alpha | DRSC21036 | -2.56 | -0.965 | -0.701 | inactive
CG34345 | DRSC02126 | 0.764 | 0.158 | -0.765 | inactive
CG34345 | DRSC37753 | -0.404 | 0.0536 | 3.48 | inactive
vtd | DRSC38781 | 1.39 | 0.0678 | 0.0442 | inactive
CG10694 | DRSC14263 | -0.0246 | 0.282 | -0.997 | inactive
CG1909 | DRSC17150 | -1.51 | 0.742 | -5.06 | active
nSyb | DRSC08727 | -0.195 | -3.92 | 0.173 | inactive
nSyb | DRSC22961 | 0.237 | -0.163 | 0.272 | inactive
nSyb | DRSC27077 | -3.89 | 0.576 | 0.552 | inactive
nSyb | DRSC29975 | -0.0447 | -0.165 | 2.08 | inactive
CG9154 | DRSC03150 | -0.312 | -1.21 | -0.268 | inactive
CG11593 | DRSC08206 | -0.941 | -0.689 | 0.0247 | inactive
His4:CG33893 + His4:CG33875 + His4:CG33909 + 20 more | DRSC30020 | -1.93 | 2.27 | 0.176 | inactive
CG31278 | DRSC16051 | -4.11 | -0.431 | -3.84 | active
ClpX | DRSC15592 | 0.688 | 0.477 | 1.58 | inactive
CG7695 | DRSC16289 | -1.91 | -1.79 | 1.22 | inactive
CG16800 | DRSC02518 | 0.95 | -0.166 | 0.503 | inactive
CG16800 | DRSC28237 | -4.55 | -0.0651 | 0.473 | inactive
Cpr30F | DRSC02908 | -0.475 | -0.643 | 0.314 | inactive
Cpr30F | DRSC25531 | 0.755 | -0.612 | 0.567 | inactive
CG4520 | DRSC15590 | 0.308 | 0.968 | 0.664 | inactive
CG4520 | DRSC26216 | 0.283 | -0.198 | 0.845 | inactive
Adgf-A | DRSC10566 | -0.948 | -2.45 | -2.12 | active
Adgf-A | DRSC24552 | -0.123 | 0.932 | -0.000399 | inactive
CG1703 | DRSC19764 | -1.17 | -0.59 | 0.239 | inactive
CG12194 | DRSC00345 | -0.407 | 0.104 | 0.335 | inactive
CG12194 | DRSC24918 | -0.281 | -0.278 | 0.144 | inactive
CG10435 | DRSC14246 | -0.283 | 0.683 | -0.0698 | inactive
CG10435 | DRSC25312 | -1.28 | -0.775 | -1.56 | inactive
Or42b | DRSC04913 | -0.447 | -0.551 | -4.11 | inactive
Or42b | DRSC27273 | -0.442 | 0.0739 | -0.318 | inactive
Gr22c | DRSC22081 | 0.461 | 0.789 | -0.62 | inactive
Gr22c | DRSC29715 | -0.873 | 0.188 | -2.68 | inactive
CG13148 | DRSC06275 | -0.16 | -3.27 | 0.0426 | inactive
Gem4c + Gem4b | DRSC17294 | 0.287 | 1.27 | 0.0301 | inactive
Pak | DRSC12602 | -2.57 | -1.59 | -1.82 | inactive
Pak | DRSC23302 | 0.644 | 0.97 | 0.916 | inactive
Pak | DRSC40780 | -0.531 | -0.0826 | 0.714 | inactive
GC1 | DRSC15322 | -0.295 | 0.444 | -0.596 | inactive
GC1 | DRSC25627 | -1.9 | -7.16 | -1.08 | active
Nct | DRSC16172 | 0.281 | -0.803 | -0.288 | inactive
qkr58E-3 | DRSC04711 | -0.6 | 0.381 | -5.1 | inactive
crp | DRSC03515 | 0.58 | -0.224 | -0.0738 | inactive
crp | DRSC40714 | 0.41 | 0.07 | 0.432 | inactive
CG32591 | DRSC19063 | -0.813 | -1.96 | -1.14 | inactive
Rtf1 | DRSC04085 | 0.267 | 0.0823 | 0.0302 | inactive
Rtf1 | DRSC29441 | -0.0443 | 1.63 | 0.14 | inactive
jeb | DRSC06305 | 1.2 | -0.0404 | 1.03 | inactive
jeb | DRSC06307 | 0.704 | 0.467 | 1.05 | inactive
jeb | DRSC26882 | -0.116 | 0.0946 | -0.661 | inactive
retm | DRSC03252 | -0.565 | 0.148 | 0.371 | inactive
Tmem63 | DRSC06063 | 1.02 | -0.206 | 1.82 | inactive
Tmem63 | DRSC27402 | -1.32 | -0.668 | 0.0888 | inactive
